Test results taken from patent publication US20250237650A1 (priority 2021, published 2025).

Test system: monomeric HIV gp140 protein (group M, subtype CRF07_BC)
Set-up: species or system HIV-1
Settings: CD4 signaling probe; p<0.05

heparan sulfate [HS]
LFSA signal intensity of capture probes for Env protein: significantly higher signal intensity than the HEP
